Sequence variants of PSTVd loop 15 after infection

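Three N. benthamiana plants were inoculated with the whole mutant pool. Progeny were sequenced from the inoculated region (day 5), the margin of the inoculated leaf (day 10) and systemic leaves (day 12).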

The pool varies loop 15 of the PSTVd intermediate strain in the pattern GGAAACCGNNNNNNC; wild type is GGAAACCGCUACUAC (upper and lower strand joined, each 5' to 3', the first 7 letters being the upper strand, closing pairs included).

Values are reads per thousand in the sample; higher means more abundant, 0 means not found.
Each value is the mean of three plants.
"Pool" is the share in the plasmid pool used as inoculum, on the same scale.
The inoculated region was read from the minus strand, the other sites from the plus strand.

GGAAACCGAAAUCUC (pool 0.272) read inoculated region 0.166; leaf margin 0.00742; systemic leaves 0.
GGAAACCGAAGUGCC (pool 0.128) read inoculated region 0.0667; leaf margin 0.0282; systemic leaves 0.
GGAAACCGAGUGGCC (pool 0.320) read inoculated region 0.118; leaf margin 0.0236; systemic leaves 0.0183.
GGAAACCGAUGCUGC (pool 0.240) read inoculated region 0.111; leaf margin 0; systemic leaves 0.
GGAAACCGAUUCAGC (pool 0.0800) read inoculated region 0.101; leaf margin 0.0202; systemic leaves 0.
GGAAACCGCAACUCC (pool 0.192) read inoculated region 0.101; leaf margin 0.0141; systemic leaves 0.
GGAAACCGCACUAUC (pool 0.384) read inoculated region 0.113; leaf margin 0.0254; systemic leaves 0.
GGAAACCGCUCGUUC (pool 0.224) read inoculated region 0.272; leaf margin 0.141; systemic leaves 0.0537.
GGAAACCGCUGCGCC (pool 0.336) read inoculated region 0.136; leaf margin 0; systemic leaves 0.
GGAAACCGGAUUGUC (pool 0.288) read inoculated region 0.116; leaf margin 0.00668; systemic leaves 0.00537.
GGAAACCGGCUCAGC (pool 0.192) read inoculated region 0.101; leaf margin 0.0202; systemic leaves 0.
GGAAACCGGGGGUAC (pool 0.208) read inoculated region 0.290; leaf margin 0.117; systemic leaves 0.0483.
GGAAACCGGUGCCAC (pool 0.304) read inoculated region 0.0586; leaf margin 0; systemic leaves 0.
GGAAACCGUAGAAAC (pool 0.0960) read inoculated region 0.147; leaf margin 0.00742; systemic leaves 0.00537.
GGAAACCGUAGGUAC (pool 0.272) read inoculated region 0.376; leaf margin 0.0860; systemic leaves 0.0676.
GGAAACCGUCGGAAC (pool 0.160) read inoculated region 0.0687; leaf margin 0.0121; systemic leaves 0.
GGAAACCGUCUACCC (pool 0.256) read inoculated region 0.126; leaf margin 0.0187; systemic leaves 0.
GGAAACCGUGAGGAC (pool 0.224) read inoculated region 0.349; leaf margin 0.0637; systemic leaves 0.102.
GGAAACCGUGCGUAC (pool 0.176) read inoculated region 0.268; leaf margin 0.122; systemic leaves 0.0230.
GGAAACCGUGCUAUC (pool 0.288) read inoculated region 0.175; leaf margin 0.0121; systemic leaves 0.
GGAAACCGUGGAAGC (pool 0.192) read inoculated region 0.103; leaf margin 0.00742; systemic leaves 0.
GGAAACCGUGUAAUC (pool 0.224) read inoculated region 0.0623; leaf margin 0; systemic leaves 0.
GGAAACCGUGUCCCC (pool 0.224) read inoculated region 0.0950; leaf margin 0.0134; systemic leaves 0.

The last 3 entries again:

| sequence | pool | inoculated region | leaf margin | systemic leaves |
|---|---|---|---|---|
| GGAAACCGUGGAAGC | 0.192 | 0.103 | 0.00742 | 0 |
| GGAAACCGUGUAAUC | 0.224 | 0.0623 | 0 | 0 |
| GGAAACCGUGUCCCC | 0.224 | 0.0950 | 0.0134 | 0 |

With 43,870-66,106 reads a sample, very low values are single reads.
Wild type was 33.9 per thousand in the pool and the most common sequence in every sample (inoculated region 202, 200, 159; leaf margin 724, 746, 710; systemic leaves 856, 883, 880).
The authors trace changes outside the varied positions to PCR and sequencing errors or to mutation in the plant; presence does not show that a variant is infectious alone.

Data from the supplement of Wu et al. 2024, doi:10.1371/journal.ppat.1012142.